{"source": "PubChem BioAssay AID624099 (ICCB-Longwood, 2012)", "test": "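Host factors E2 relies on to silence an HPV18 LCR reporter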 (primary screen)", "cell system": "human C33A cervical carcinoma cells (HPV-negative) stably expressing BPV1 E2 and an HPV18 LCR luciferase reporter", "knock-down reagent": "siRNA pool against human genes, 40 nM", "time to read-out": "72 h", "measured": "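HPV18 LCR reporter light per well, converted to plate-wise z-scores that exclude control wells, and averaged over triplicate plates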", "direction": "mean z-score and z-score: higher = stronger reporter signal, weaker E2 silencing", "active means": "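Hit if mean z-score reaches 2 and two or more of three replicate z-scores also reach 2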", "note": "The deposit covers about 21,000 reagents; shown is a part drawn at random. In the full data, 497 (2.4%) are marked active. 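Higher z means weaker E2 silencing; only reporter increases were scored, and knock-downs that hurt cell survival may mask genuine repressor factors.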 Unmarked entries are inactive."}
{"Target gene": "DMWD (DM1 locus, WD repeat containing)", "PubChem SID": "SID134325826", "mean z-score": -1.47, "z-score, replicate A": -1.63, "z-score, replicate B": -1.3, "z-score, replicate C": -1.48}
{"Target gene": "ENO1 (enolase 1)", "PubChem SID": "SID134310237", "mean z-score": 1.09, "z-score, replicate A": 1.33, "z-score, replicate B": 0.94, "z-score, replicate C": 0.99}
{"Target gene": "ACYP1 (acylphosphatase 1)", "PubChem SID": "SID134314628", "mean z-score": -0.6, "z-score, replicate A": -0.48, "z-score, replicate B": -0.78, "z-score, replicate C": -0.55}
{"Target gene": "MUC5AC (mucin 5AC, oligomeric mucus/gel-forming)", "PubChem SID": "SID134329719", "mean z-score": -0.36, "z-score, replicate A": -0.3, "z-score, replicate B": -0.34, "z-score, replicate C": -0.43}
{"Target gene": "NQO2 (N-ribosyldihydronicotinamide:quinone dehydrogenase 2)", "PubChem SID": "SID134311737", "mean z-score": 0.72, "z-score, replicate A": 0.69, "z-score, replicate B": 0.77, "z-score, replicate C": 0.69}
{"Target gene": "CTSS (cathepsin S)", "PubChem SID": "SID134311271", "mean z-score": 0.25, "z-score, replicate A": -0.12, "z-score, replicate B": 0.25, "z-score, replicate C": 0.61}
{"Target gene": "UFC1 (ubiquitin-fold modifier conjugating enzyme 1)", "PubChem SID": "SID134324295", "mean z-score": -0.8, "z-score, replicate A": -0.1, "z-score, replicate B": -0.72, "z-score, replicate C": -1.56}
{"Target gene": "SH2D2A (SH2 domain containing 2A)", "PubChem SID": "SID134321759", "mean z-score": 0.15, "z-score, replicate A": 0.27, "z-score, replicate B": 0.49, "z-score, replicate C": -0.31}
{"Target gene": "LOC401098 (retired record)", "PubChem SID": "SID134327388", "mean z-score": -1.98, "z-score, replicate A": -1.7, "z-score, replicate B": -2.19, "z-score, replicate C": -2.04}
{"Target gene": "SLC45A1", "PubChem SID": "SID134325095", "mean z-score": -0.61, "z-score, replicate A": -0.46, "z-score, replicate B": -0.95, "z-score, replicate C": -0.44}
{"Target gene": "HMCN2 (hemicentin 2)", "PubChem SID": "SID134328050", "mean z-score": 0.43, "z-score, replicate A": 0.58, "z-score, replicate B": 0.33, "z-score, replicate C": 0.37}
{"Target gene": "HMCN2 (hemicentin 2)", "PubChem SID": "SID134328051", "mean z-score": 1.07, "z-score, replicate A": 0.84, "z-score, replicate B": 1.21, "z-score, replicate C": 1.15}
{"Target gene": "HMCN2 (hemicentin 2)", "PubChem SID": "SID134328140", "mean z-score": 0.36, "z-score, replicate A": 0.48, "z-score, replicate B": -0.05, "z-score, replicate C": 0.63}
